Measurements: patent publication US12295987B2 (Eli Lilly and Company, priority 2018, dated 2025)

Experiment: general procedure: Fmoc solid-phase peptide synthesis; Fmoc-Rink-MBHA Low Loading resin, 100-200 mesh, 1% DVB cross-linked polystyrene, 0.3-0.4 meq/g; diisopropylcarbodiimide/Oxyma; PyAOP/DIPEA for fatty acid-linker moiety
Details: whole synthesis, analytical RP-HPLC, TFA salt

## Y-Aib-EGT-αMeF(2F)-TSDYSI-αMeL-LDEK((2-[2-(2-Amino-ethoxy)-ethoxy]-acetyl)2-(γGlu)-CO—(CH2)18—CO2H)AQ-Aib-EFI-(D-Glu)-YLIEGGPSSGAPPPS-NH2
  final HPLC purity: 98.0%
